The subject of data set [1] is 2G12 (anti-HIV gp120 broadly neutralizing antibody). Kind of data set: binding assay. The conditions noted are these: transcript of the listed DNA; 2'-F pyrimidines; every U is 2'-F-5-ethynyl-U clicked to Man9-cyclohexyl azide; no significant binding; clone lacks capture/spacer region; purified recombinant protein.
For data set [2] the test system is unchanged. Description: pull-down. The conditions noted are these: 2'-F pyrimidines, no binding at 300 nM 2G12, qPCR bead assay, purified recombinant protein.
For data set [3] the test system is unchanged. Description: filter binding. The conditions noted are these: 2'-F pyrimidines, purified recombinant protein.
The mark [4] stands for this setting: every U is 2'-F-5-ethynyl-U clicked to Man9-cyclohexyl azide (3 glycans), variant of 15F3.
The mark [5] stands for this setting: every U is 2'-F-5-ethynyl-U clicked to Man9-cyclohexyl azide (2 glycans), variant of 15F1.

Construct, isoform or probe ends are uncertain for at least one entry. A negative result means that nothing was seen under these conditions.

“GGAGACAGGAUUGACACCGACCACUUGCCCAAGCGACACAAAGCCCGG [18F4]”: the binding result in data set [1] is on record as “no binding”.

Turning to “GGAGACUGUCCCAACGGCAAUGUGGCUCACAAGCGACACAAAGCCCGG [17F3]”, the binding result in data set [1] is “no binding”.

“GGAGAGAAGGAGGGAAGAGAGAAAAAAAACAUAGGGAACCCAGGAGAUUGGGGCAAGCGACACAAAGCCCGG [15F3-M2]”: in data set [2] (setting [4]), the binding result is recorded as “no binding”.

As to “GGAGAGAAGGAGGGAAGAGAGAAAAAAAACAUAGGGAACCCAGGUGACUGGGGCAAGCGACACAAAGCCCGG [15F3-M3]”, the binding result in data set [2] (setting [4]) was “no binding”.

On to “GGAGAGAAGGAGGGAAGAGAGAAAAAAAACAUAGGGAACCCAGGUGAUUGGGGCAAGCGACACAAAGCCCGG [15F3]”, for which, in data set [3] (every U is 2'-F-5-ethynyl-U clicked to Man9-cyclohexyl azide (4 glycans), minimal or no binding after denaturing PAGE purification and refolding), the binding result is “no binding”.

As to “GGAGAGAAGGAGGGAAGAGAGAAAAAAAACAUAGGGAACGCCGGUGAUGGCGGCAAGCGACACAAAGCCCGG [15F3-M4]”, the binding result in data set [2] (setting [4]) is “no binding”.

As to “GGAGAGAAGGAGGGAAGAGAGAAAAAAACGACGGAACAGGGGCCCCCUGUGGAAAGCGACACAAAGCCCGG [15F1-M1]”, the binding result in data set [2] (every U is 2'-F-5-ethynyl-U clicked to Man9-cyclohexyl azide (2 glycans), at most 3% of parent signal (FIG. 8), variant of 15F1) is listed as “no binding”.

Regarding “GGAGAGAAGGAGGGAAGAGAGAAAAAAUCGACGGAACAGGGGCCCCCUGUGGAAAGCGACACAAAGCCCGG [15F1]”, in data set [3] (every U is 2'-F-5-ethynyl-U clicked to Man9-cyclohexyl azide (3 glycans), minimal binding after denaturing PAGE purification and refolding), the binding result is “no binding”.

Take “GGAGAGAAGGAGGGAAGAGAGAAAAAAUCGACGGAACCGGGGCCCCCGGUGGAAAGCGACACAAAGCCCGG [15F1-M2]”: the binding result in data set [2] (setting [5]) was “no binding”.

With “GGAGAGAAGGAGGGAAGAGAGAAAAAAUCGACGGAGCAGGGGCCCCCUGCGGAAAGCGACACAAAGCCCGG [15F1-M3]”, in data set [2] (setting [5]), the binding result is given as “no binding”.

These data come from US20250281598.
